Results of unrelated studies side by side (data: NIAID ChemDB).

Neighbouring rows are from separate reports.

{"smiles": "Oc1ccccc1N=Cc1cccc(O)c1O", "strain": "1913 ER", "kind": "culture", "measure": "MIC99", "organism": "Cryptococcus gattii", "result": "11.3 µg/mL"}
{"smiles": "Fc1ccc(N2CCCCC2)c(NC(=S)c2ccncc2)c1", "read by": "kinase activity", "protein": "DCAMKL2", "kind": "host protein", "measure": "inhibition", "dose": "10 µM", "result": "-4%"}
{"smiles": "COc1ccc(N2CCN(c3cncc(-c4ccc(C(F)(F)F)cc4)n3)CC2)cc1OC", "protein": "UL97 kinase", "kind": "target", "measure": "IC50", "organism": "Cytomegalovirus", "result": "<10 µM"}
{"smiles": "CCC(CC)O[C@@H]1C=C(C(=O)O)C[C@H](N)[C@H]1NC(C)=O", "strain": "Influenza A/Sydney/05/97 (H3N2)", "cell line": "MDCK", "kind": "culture", "measure": "EC50", "organism": "Influenza A virus", "result": "0.31 µM"}
{"smiles": "CC(=O)c1cccc(-c2cncc(N3CCN(c4ccccc4F)CC3)n2)c1", "protein": "UL97 kinase", "kind": "target", "measure": "IC50", "organism": "Cytomegalovirus", "result": "<10 µM"}
{"smiles": "Oc1ccccc1C=Nc1ccccc1O", "strain": "F-10", "kind": "culture", "measure": "MIC99", "organism": "Cryptococcus neoformans", "result": "4 µg/mL"}
{"smiles": "OCc1ccccc1-c1cncc(N2CCN(c3ccc(F)cc3F)CC2)n1", "protein": "UL97 kinase", "kind": "target", "measure": "IC50", "organism": "Cytomegalovirus", "result": "<100 µM"}
{"smiles": "Nc1ccc2cc(S(=O)(=O)O)cc(S(=O)(=O)O)c2c1", "read by": "cytopathic effect", "cell line": "Human embryonic lung cells", "kind": "culture", "measure": "inhibition", "organism": "Rhinovirus", "dose": "10 µg/mL", "result": "55%"}
{"smiles": "Oc1cccc(C=Nc2ccccc2O)c1", "strain": "C-3-1", "kind": "culture", "measure": "MIC99", "organism": "Cryptococcus neoformans", "result": "2.8 µg/mL"}
{"smiles": "CSc1ccc(-c2cncc(N3CCN(c4ccncc4)CC3)n2)cc1", "protein": "UL97 kinase", "kind": "target", "measure": "IC50", "organism": "Cytomegalovirus", "result": "<1 µM"}
{"smiles": "Oc1ccccc1N=Cc1ccc(F)cc1", "strain": "547/OTTI-97-PI-10", "kind": "culture", "measure": "MIC99", "organism": "Cryptococcus gattii", "result": "11.3 µg/mL"}
{"smiles": "Nc1ccc2cc([N+](=O)[O-])cc(S(=O)(=O)[O-])c2c1", "strain": "TYPE 3", "read by": "cytopathic effect", "cell line": "Human amnion AV3 cells", "kind": "culture", "measure": "inhibition", "organism": "Adenovirus", "dose": "50 µg/mL", "result": "0%"}
{"smiles": "Cc1cc(C)cc(-c2cncc(N3CCN(c4ccncc4)CC3)n2)c1", "protein": "UL97 kinase", "kind": "target", "measure": "IC50", "organism": "Cytomegalovirus", "result": "<10 µM"}
{"smiles": "O=C(Nc1c(S(=O)(=O)[O-])cc2cc(S(=O)(=O)[O-])cc(O)c2c1O)c1ccccc1", "read by": "cytopathic effect", "cell line": "Human amnion AV3 cells", "kind": "culture", "measure": "inhibition", "organism": "Rhinovirus", "dose": "10 µg/mL", "result": "18%"}
{"smiles": "CCO/N=C/c1ccc(OCCC2CCN(c3ccc(Cl)nn3)CC2)cc1", "strain": "16/60 (ICAM-1 receptor group 4)", "read by": "neutral red", "cell line": "KB", "kind": "culture", "measure": "EC50", "organism": "Rhinovirus", "result": "0.023 µM"}
{"smiles": "Cc1cc(-c2ccc(N=Nc3c(N)c(S(=O)(=O)O)cc4cc(S(=O)(=O)O)ccc34)c(C)c2)ccc1N=Nc1c(N)ccc2cc(S(=O)(=O)O)ccc12", "strain": "TYPE 3", "read by": "cytopathic effect", "cell line": "Human amnion AV3 cells", "kind": "culture", "measure": "inhibition", "organism": "Adenovirus", "dose": "50 µg/mL", "result": "0%"}
{"smiles": "Oc1ccc(O)c(C=Nc2ccccc2O)c1", "strain": "29/10893", "kind": "culture", "measure": "MIC99", "organism": "Cryptococcus gattii", "result": "8 µg/mL"}
{"smiles": "O=S(=O)(O)c1cccc2c(O)cccc12", "strain": "TYPE 3", "read by": "cytopathic effect", "cell line": "Human embryonic lung cells", "kind": "culture", "measure": "inhibition", "organism": "Adenovirus", "dose": "5 µg/mL", "result": "0%"}
{"smiles": "C=CCc1ccc(O)c(OC)c1", "strain": "177", "read by": "turbidity", "kind": "culture", "measure": "MIC90", "organism": "Candida albicans", "result": "480 µg/mL"}
{"smiles": "O=C(Nc1ccc2c(O)c(N=Nc3ccc(N=Nc4ccc(S(=O)(=O)O)cc4)cc3)c(S(=O)(=O)O)cc2c1)c1ccccc1", "read by": "cytopathic effect", "cell line": "Human conjunctiva cells", "kind": "culture", "measure": "inhibition", "organism": "Herpes simplex virus", "dose": "50 µg/mL", "result": "90%"}
{"smiles": "Cc1ccc(N2CCN(c3cncc(-c4ccc(CO)cc4)n3)CC2)c(C)c1", "protein": "UL97 kinase", "kind": "target", "measure": "inhibition", "organism": "Cytomegalovirus", "dose": "10 µM", "result": ">15%"}
{"smiles": "O=C(Nc1ccc(S(=O)(=O)[O-])c2cccc(S(=O)(=O)[O-])c12)c1ccccc1", "strain": "TYPE 3", "read by": "cytopathic effect", "cell line": "Human amnion AV3 cells", "kind": "culture", "measure": "inhibition", "organism": "Adenovirus", "dose": "10 µg/mL", "result": "0%"}
{"smiles": "Oc1ccccc1N=Cc1ccc(O)c(O)c1O", "strain": "WP", "kind": "culture", "measure": "MIC99", "organism": "Cryptococcus neoformans", "result": "11.3 µg/mL"}
{"smiles": "O=S(=O)([O-])c1ccc(O)c2ccccc12", "read by": "cytopathic effect", "cell line": "Human conjunctiva cells", "kind": "culture", "measure": "inhibition", "organism": "Herpes simplex virus", "dose": "50 µg/mL", "result": "0%"}
{"smiles": "CCOC(=O)c1c(C)nc(OCCCNc2ccnc3cc(Cl)ccc23)nc1-c1ccccc1", "strain": "VM-MCMMPI", "kind": "culture", "measure": "MIC99", "organism": "Cryptococcus neoformans", "result": "8 µg/mL"}

2 of the rows above, restated:

smiles,strain,read by,cell line,protein,kind,measure,organism,dose,result
Oc1ccccc1N=Cc1cccc(O)c1O,1913 ER,,,,culture,MIC99,Cryptococcus gattii,,11.3 µg/mL
Oc1cccc(C=Nc2ccccc2O)c1,C-3-1,,,,culture,MIC99,Cryptococcus neoformans,,2.8 µg/mL

MIC50, MIC90 and the like: level of inhibition, or share of isolates inhibited. ICn: concentration for n% inhibition. An empty or dashed field is not shown. Percent inhibition refers to the dose given; in toxicity tests it is the harm to the cells. ECn: concentration that inhibits the pathogen or its effect by n%.